# According to PubChem BioAssay AID686971 (National Center for Advancing Translational Sciences (NCATS), 2013):
# This is a selection; strong and weak results do not stand in their true shares. Results filed as inconclusive are left out. The source made the active and inactive calls. The call rests on the fitted dose curve; in most records, active means well fitted cell-killing curve with a large enough effect; inconclusive means small, poorly fitted or top-dose-only effect, or effect the other way, or another doubt; inactive means no such curve, though single readings can be large or run the other way.
# Assay: qHTS for induction of synthetic lethality in tumor cells producing 2HG: qHTS for the HT-1080-IDH1KD cell line
# Conditions: HT-1080 IDH1 knockdown viability, ATP luminescence, 48 h
# Potency means the concentration at half of the fitted maximal effect.
row,SMILES,Potency
1,CC(=O)OCC12CC(OC(=O)CC(C)C)C(C)=CC1OC1C(O)C(OC(C)=O)C2(C)C12CO2 (stereo unspecified),active: 184 nM
